A mixed list of measured activities; the numbers were collected in NIAID ChemDB.

Common to all: host cell toxicity; cell line: MT-4; measure: CC50

CCn: concentration that lowers growth or viability of the cells by n%. An empty or dashed field is not shown. Lines come from different laboratories, so protocols vary.

smiles | read by | value
Cc1ccc(C(C)S(=O)(=O)c2c(C)ccc[n+]2[O-])c(C)c1 | MTT | 60 µg/mL
CCCCOC(=O)c1cccn1S(=O)(=O)c1cc(Cl)ccc1[N+](=O)[O-] | MTT | 22 µM
CCOC(=O)c1cccn1S(=O)(=O)c1cc(Cl)ccc1NS(=O)(=O)c1ccc(C)cc1 |  | 41 µM
Cc1ccc(C)c(C(C)S(=O)(=O)c2ccc(C)c[n+]2[O-])c1 | MTT | 26 µg/mL
[N-]=[N+]=N[C@]1(CO)O[C@@H](n2cnc3c(=O)[nH]c(N)nc32)C[C@@H]1O | absorbance | 4.7 µM
Cc1cn([C@H]2C=C[C@@H](OCP(=O)(O)O)O2)c(=O)[nH]c1=O |  | >600 µM
CC(C)c1c(OCC2CCC2)c2cc(Cl)ccc2[nH]c1=O |  | 44 µM
CCC(C)Sc1nc(Cc2ccccc2)cc(=O)[nH]1 |  | 150 µM
CCNC(=O)c1cccn1S(=O)(=O)c1cc(Cl)ccc1N | MTT | >200 µM
CCCc1c(OC#CC2CC2)c2cc(Cl)ccc2[nH]c1=O |  | 28.8 µM
CC1(C)c2nc(C(=O)NCc3ccc(F)cc3)c(O)c(=O)n2CCN1CC(=O)N1CCOCC1 | microscopy | >1 µM
CCc1c(OC#CC2CC2)c2cc(F)ccc2[nH]c1=O |  | 10 µM
CCN(CC)C(=O)c1cccn1S(=O)(=O)c1cc(Cl)ccc1[N+](=O)[O-] | MTT | 13 µM
CCNCC(=O)Nc1ccc(Cl)cc1S(=O)(=O)n1cccc1C(=O)OCC |  | 116 µM
Cc1nc(NC(=O)NCCc2ccccc2)sc1C |  | >100 µg/mL
C#CCOC(=O)c1cccn1S(=O)(=O)c1cc(Cl)ccc1N | MTT | 118 µM
CCO/C(CC(=O)NCc1ccccc1)=N\Nc1ccccc1[N+](=O)[O-] | MTT | 0.82 µM
CC(C)c1c(OC#CC2CC2)c2cc(Cl)ccc2[nH]c1=O |  | 40 µM
CCC(C)Sc1nc(Cc2cccc3ccccc23)c(CN2CCCCC2)c(=O)[nH]1 |  | 26 µM
S=C(NCCc1ccccc1)Nc1nccs1 |  | ~100 µg/mL
CC[C@]1(CO)O[C@@H](n2cnc3c(N)nc(N)nc32)C[C@@H]1O | absorbance | 33.1 µM
Cc1ccc(C)c(C(Cl)S(=O)(=O)c2cc(C)cc[n+]2[O-])c1 | MTT | >4 µg/mL
CCCc1c(Cc2ccccc2)n(COC/C=C/c2ccccc2)c(=O)[nH]c1=O | MTT | 29 µM
O=[N+]([O-])c1ccc[n+]([O-])c1SCc1ccccc1 | MTT | 28 µg/mL
CC(C)c1c(SCC2CCC2)c2cc(F)ccc2[nH]c1=O |  | 68.5 µM
Cc1ccc(C)c(CSc2c(Cl)ccc[n+]2[O-])c1 | MTT | 13 µg/mL
CCOC(=O)c1cccn1S(=O)(=O)c1ccc(NC(C)=O)cc1 |  | 83.8 µM
CCCc1c(Cc2cc(C)cc(C)c2)n(COC/C=C/c2ccccc2)c(=O)[nH]c1=O | MTT | 31 µM
COc1c(Cl)cc(C(=CCC[C@@H](C)[C@H]2CCC3C4C(C[C@H](O)[C@@]32C)[C@@]2(C)CC[C@@H](O)C[C@H]2C[C@H]4O)c2cc(Cl)c(OC)c(C(=O)O)c2)cc1C(=O)O |  | >54.1 µM
CCCc1c(Cc2cc(C)cc(C)c2)n(COCC2CC=CCC2)c(=O)[nH]c1=O | MTT | 30 µM
CCCc1c(SC2CCCC2)c2cc(F)ccc2[nH]c1=O |  | 30 µM
NC(=O)c1cccn1S(=O)(=O)c1ccccc1N | MTT | >200 µM
CCOC(=O)c1cccn1S(=O)(=O)c1cc(Cl)ccc1NC(=O)c1ccc(Cl)cc1 |  | >200 µM
CCOC(=O)c1ccn(S(=O)(=O)c2cc(Cl)ccc2N)c1 | MTT | 44 µM
O=C(NCCc1ccccc1)Nc1nc2ccccc2s1 |  | >100 µg/mL
NC(=O)c1cccn1S(=O)(=O)c1cc(Cl)ccc1N | MTT | 200 µM
CCO/C(CC(=O)NCc1ccc(Cl)cc1)=N\Nc1ccccc1[N+](=O)[O-] | MTT | 15.91 µM
CCC(C)C#COc1c(C(C)C)c(=O)[nH]c2ccc(F)cc12 |  | 21.3 µM
O=C(NCc1ccc(F)cc1)c1nc2n(c(=O)c1O)CCN(Cc1cocn1)C21CC1 | microscopy | >1 µM
O=C(NCCc1ccccc1)Nc1nc2ccc(F)cc2s1 |  | >100 µg/mL
Nc1ccc(Cl)cc1S(=O)(=O)n1cccc1C(=O)OCCO | MTT | >200 µM
C[C@H](CCC=C(c1cc(Cl)c(O)c(C(=O)O)c1)c1cc(Cl)c(O)c(C(=O)O)c1)[C@H]1CCC2C3C(C[C@H](O)[C@@]21C)[C@@]1(C)CC[C@@H](O)C[C@H]1C[C@H]3O |  | >125 µM
CCOC(=O)c1ccn(S(=O)(=O)c2cc(Cl)ccc2[N+](=O)[O-])c1 | MTT | 0.7 µM
CCO/C(CC(=O)NCc1ccc(OC)cc1)=N\Nc1ccccc1[N+](=O)[O-] | MTT | >30.68 µM
CN1CCn2c(nc(C(=O)NCc3ccc(F)cc3)c(O)c2=O)C1 | microscopy | >1 µM
C=C[C@]1(CO)O[C@@H](n2cnc3c(=O)[nH]c(N)nc32)C[C@@H]1O | absorbance | 24.7 µM
CN1C(=O)CN2CCn3c(nc(C(=O)NCc4ccc(F)cc4)c(O)c3=O)C1C2 | microscopy | >1 µM
CCc1c(Cc2cc(C)cc(C)c2)n(COC/C=C/c2ccccc2)c(=O)[nH]c1=O | MTT | 32 µM
CN1CCn2c(nc(C(=O)NCc3ccc(F)cc3)c(O)c2=O)C(NC(=O)C(=O)N(C)C)C1 | microscopy | >1 µM
CCCc1c(OC2CCC2)c2cc(Cl)ccc2[nH]c1=O |  | 94.7 µM

For reference, 5 entries again:

CCCc1c(SC2CCCC2)c2cc(F)ccc2[nH]c1=O ; value: 30 µM
C=C[C@]1(CO)O[C@@H](n2cnc3c(=O)[nH]c(N)nc32)C[C@@H]1O ; read by: absorbance ; value: 24.7 µM
CCO/C(CC(=O)NCc1ccccc1)=N\Nc1ccccc1[N+](=O)[O-] ; read by: MTT ; value: 0.82 µM
CN1C(=O)CN2CCn3c(nc(C(=O)NCc4ccc(F)cc4)c(O)c3=O)C1C2 ; read by: microscopy ; value: >1 µM
CCCc1c(Cc2cc(C)cc(C)c2)n(COC/C=C/c2ccccc2)c(=O)[nH]c1=O ; read by: MTT ; value: 31 µM